Results reported in publication PMC7000732, “Bridging non-overlapping reads illuminates high-order epistasis between distal protein sites in a GPCR” (Nature Communications, 2020).
Substitutions are numbered along the chain they refer to. Names and notes keep the numbering of the source.

Experiment: Whole-cell saturation radioligand binding
Parameters: species or system Saccharomyces cerevisiae

B1: TGRIA: Variant GRIA (T88/Q89G/W246R/L249I/H250A) of human adenosine A2a receptor (protein, UniProt P29274 1-412, looked up, variant Q89G W246R L249I H250A)
Adenosine receptor A2a: MPIMGSSVYITVELAIAVLAILGNVLVCWAVWLNSNLQNVTNYFVVSLAAADIAVGVLAIPFAITISTGFCAACHGCLFIACFVLVLTGSSIFSLLAIAIDRYIAIRIPLRYNGLVTGTRAKGIIAICWVLSFAIGLTPMLGWNNCGQPKEGKNHSQGCGEGQVACLFEDVVPMNYMVYFNFFACVLVPLLLMLGVYLRIFLAARRQLKQMESQPLPGERARSTLQKEVHAAKSLAIIVGLFALCRLPIAIINCFTFFCPDCSHAPLWLMYLAIVLSHTNSVVNPFIYAYRIREFRQTFRKIIRSHVLRQQEPFKAAGTSARVLAAHGSDGEQVSLRLNGHPPGVWANGSAPHPERRPNGYALGLVSGGSAQESQGNTGLPDVELLSHELKGVCPEPPGLDDPLAQDGAGVS
- functional yield (Bmax) relative to wild-type A2aR: 1.2 fold

B2: TSWLH: single-residue mutant Q89S of A2aR, the most abundant variant in PS4 (protein, UniProt P29274 1-412, looked up, variant Q89S)
Adenosine receptor A2a: B1 Adenosine receptor A2a with G89S, R246W, I249L, A250H
- functional yield (Bmax) relative to wild-type A2aR: 1.4–1.7 fold

B3: TAWLH: single-residue mutant Q89A of A2aR, positive control reported to exhibit improved binding affinity to NECA (protein, UniProt P29274 1-412, looked up, variant Q89A)
Adenosine receptor A2a: B1 Adenosine receptor A2a with G89A, R246W, I249L, A250H
modifications: decahistidine tag
- functional yield (Bmax) relative to wild-type A2aR: 1.4–1.7 fold
